Measured values published in publication doi:10.1101/2023.10.03.560722, “Drug Discovery in Low Data Regimes: Leveraging a Computational Pipeline for the Discovery of Novel SARS-CoV-2 Nsp14-MTase Inhibitors” (bioRxiv, 2024).
Where a SMILES comes first, the peptide text is derived from it. [ ]: non-standard residue; d: D form. The star is where a group is joined. Ac5c = NC1(C(=O)O)CCCC1; Cbz = O=C(OCc1ccccc1)*

assay: quenching effect observed in the high-throughput radioactivity-based screen

SMILES | Quenching effect % [%]
O=C(O)c1ccc(C(=O)c2ccc(C(=O)c3ccc(C(=O)O)cc3)cc2)cc1 [NSC2269] | 1
O=C(CN1CCOCC1)C(O)C(O)C(O)CO (stereo not drawn) [NSC4348] | 9
O=C(O)c1nc(N=Nc2ccc(S(=O)(=O)O)cc2)[nH]c1C(=O)O [NSC4624] | 49
O=C(N/N=C/[C@H](O)[C@H]1OC(=O)[C@@H](O)[C@H]1O)c1ccncc1 [NSC27605] | 2
OCC(O)C(O)C(O)C(O)c1nc2ccccc2s1 (stereo not drawn) [NSC34443] | −7
O=C(NNCNNC(=O)c1ccncc1)c1ccncc1 [NSC39302] | 12
Nc1nc2nn(-c3ccc(C(=O)NC(CCC(=O)O)C(=O)O)cc3)nc2c(=O)[nH]1 (stereo not drawn) [NSC44037] | 8
OCCNc1ncnc2c1ncn2[C@@H]1O[C@H](CO)[C@@H](O)[C@H]1O [NSC54251] | −1
O=C1C2C3C=CC(O3)C2C(=O)N1/N=C/C(O)C(O)C(O)C(O)CO (stereo not drawn) [NSC60360] | 10
O=c1cc(-c2ccc(O)cc2)oc2c(O)c(O)c(O)c(O)c12 [NSC76988] | 8
O=C1C=C(O)C(=C/C=C/C=C/c2c(O)cc(O)cc2O)C(O)=C1 [NSC77131] | 52
Nc1ncnc2c1ncn2[C@H]1C[C@H](O)[C@@H](COP(=O)(O)O)O1 [NSC77680] | 21
O=C(O)CNC(=O)C1(NC(=O)CNC(=O)OCc2ccccc2)CCCC1 [NSC80136] (Cbz-Gly-[Ac5c]-Gly-OH) | −3
O=C(CCCCn1ccc(=O)[nH]c1=O)Nc1ccc(C(=O)O)c(O)c1 [NSC92432] | 8
CN(CC(O)C(O)C(O)C(O)CO)CN1C(=O)C(=O)c2ccccc21 (stereo not drawn) [NSC99790] | 33
O=S(=O)(O)c1cc(Cl)cc(N=Nc2ccc(O)cc2O)c1O [NSC102798] | 61
OC1COC(n2cnc3c(=S)nc[nH]c32)C(O)C1O (stereo not drawn) [NSC107661] | −2
Nc1ncnc2c1ncn2C1OC(CO)C(NC(=O)C(N)Cc2ccccc2)C1O (stereo not drawn) [NSC114010] | −2
NC(CCC(=O)NC(CSCc1ccc(F)cc1)C(=O)NCC(=O)O)C(=O)O (stereo not drawn) [NSC131119] | 14
NC(CCCNc1nc(O)c(-c2ccccc2)c(=O)[nH]1)C(=O)O (stereo not drawn) [NSC132916] | 3

SMILES | Quenching effect % [%]
O=C(O)/C=C\C(=O)NCC1CCC(CNC(=O)/C=C\C(=O)O)CC1 (stereo not drawn) [NSC137050] | 3
NS(=O)(=O)c1ccc(NC2OCC(O)C(O)C2O)cc1 (stereo not drawn) [NSC158437] | 15
Nc1ncnc2c1ncn2C1OC(C(=O)NCC(=O)O)C(O)C1O (stereo not drawn) [NSC163444] | 2
O=C(O)c1cc(=O)n(CCCCCCn2c(=O)cc(C(=O)O)[nH]c2=O)c(=O)[nH]1 [NSC232469] | −4
O=P(O)(O)OC[C@H]1O[C@@H](n2cnc3c(NCc4ccccc4)ncnc32)[C@H](O)[C@@H]1O [NSC255523] | −7
CC(C)=CCNc1ncnc2c1ncn2[C@@H]1O[C@H](COP(=O)(O)O)[C@@H](O)[C@H]1O [NSC268226] | 3
Cn1c(=O)c2c(ncn2CCCNCC(O)c2ccc(O)c(CO)c2)n(C)c1=O (stereo not drawn) [NSC293892] | −5
CC(CCc1ccc2c(c1)OCO2)NCC(O)c1ccc(O)c(C(N)=O)c1 (stereo not drawn) [NSC313453] | 5
O=C(O)CCC(=O)NCC1CCCC(CNC(=O)CCC(=O)O)C1 (stereo not drawn) [NSC317609] | 8
O=P(O)(O)OC1OC(n2cnc3c(NCc4ccc(F)cc4)ncnc32)C(O)C1O (stereo not drawn) [NSC330685] | 1
O=C(O)C(Cc1ccc(O)cc1)NC(c1ccccc1)P(=O)(O)O (stereo not drawn) [NSC377438] | 17
NC(CSCCSCCSCC(N)C(=O)O)C(=O)O (stereo not drawn) [NSC400718] | 23
O=S(=O)(O)c1ccc(N=Nc2c(O)ccc3n[nH]nc23)cc1 [NSC400937] | 70
O=c1ccn(C2OC(C(O)CO)C(O)C2O)c(=O)[nH]1 (stereo not drawn) [NSC613624] | 6
Nc1ncnc2c1ncn2[C@@H]1O[C@H](CSCc2ccc(Cl)cc2)[C@@H](O)[C@H]1O [NSC620333] | 23
COc1cc(N=Nc2ccccc2C(=O)O)cc(/C=N/NNC(N)=S)c1O [NSC630814] | 75
O=C1NC(=O)C(C(=O)C(=O)Nc2cccc(C(F)(F)F)c2)C(=O)N1 [NSC646375] | 1
NC(CCCC(N)P(=O)(O)c1ccccc1)P(=O)(O)c1ccccc1 (stereo not drawn) [NSC655184] | 5
O=C(O)c1ccc(Nc2nc3ccccc3nc2C(=O)O)cc1 [NSC670682] | 43
